A mixed list of measured activities; the numbers were collected in NIAID ChemDB.

All rows: tests in culture; species: Candida albicans; measure: MIC

Rows are shuffled and stem from different studies.

SMILES | strain | method | setting | result
CCCCCOc1ccc(-c2ccc(-c3ccc(C(=O)N[C@H]4CCCNC(=O)[C@@H]5C[C@H](NC(=O)c6ccccc6)CN5C(=O)[C@H]([C@@H](C)O)NC(=O)[C@H](CCc5ccc(O)cc5)NC(=O)[C@@H]5C[C@@H](O)CN5C(=O)[C@H]([C@@H](C)O)NC4=O)cc3)cc2)cc1 | ATCC 10231 | - | - | 6.25 µg/mL
C[C@@H](n1cnc2ccc(F)cc2c1=O)[C@](O)(Cn1cncn1)c1ccc(F)cc1F | 76 strains | - | - | 40 µg/mL
c1ccc(CO/N=C(/Cn2ccnc2)c2ccccc2)cc1 | CA2 | - | - | 2 µg/mL
C[C@@H](n1cnc2cc(-[n+]3cnc[nH]3)ccc2c1=O)[C@](O)(Cn1cncn1)c1ccc(F)cc1F | 60 strains | - | - | 10 µg/mL
COc1ccc(C[C@H](N)C(=O)N[C@H]2[C@@H](O)[C@H](n3cnc4c(=O)[nH]cnc43)O[C@@H]2C(=O)O)cc1 | FP633 | - | - | >100 µg/mL
N=C(N)c1ccc2oc(/C=C/c3cc4cc(C(=N)N)ccc4s3)cc2c1 | - | - | - | >60 µg/mL
C[C@@H](n1cnc2cc(F)ccc2c1=O)[C@](O)(Cn1cncn1)c1ccc(F)cc1F | 60 strains | - | - | 0.07 µg/mL
O=C(c1ccccc1)c1oc2ccc(Cl)cc2c1Cn1cncn1 | Clinical isolate | - | - | 25 µg/mL
CCCCCCCOc1ccc(N2CCN(c3ccc(C(=O)N[C@H]4CCCNC(=O)[C@@H]5C[C@H](N)CN5C(=O)[C@H]([C@@H](C)O)NC(=O)[C@H](CCc5ccc(N)cc5)NC(=O)[C@@H]5CCCN5C(=O)[C@H]([C@@H](C)O)NC4=O)cc3)CC2)cc1 | ATCC 62376 | - | - | 0.2 µg/mL
CCCCCCCCOc1ccc(N2CCN(c3ccc(C(=O)N[C@H]4CCCNC(=O)C5C[C@H](N)CN5C(=O)C(C(C)O)NC(=O)C(Cc5ccc(C=O)cc5)NC(=O)C5CCCN5C(=O)C(C(C)O)NC4=O)cc3)CC2)cc1 | ATCC 10231 | - | - | 25 µg/mL
Nc1[nH]c(=O)ncc1F | 15 isolates | broth dilution | pH 7 | 0.125 µg/mL
O=C(c1ccccc1)c1oc2ccc(Cl)cc2c1Cn1ccnc1 | Clinical isolate | - | - | 25 µg/mL
CC(=O)N1CCN(c2ccc(OC[C@H]3CO[C@](Cn4ccnc4)(c4ccc(Cl)cc4Cl)O3)cc2)CC1 | 10 isolates | broth dilution | pH 5 | 0.06 µg/mL
C[C@@H](n1cnc2cc(N3CCN(C)CC3)ccc2c1=O)[C@](O)(Cn1cncn1)c1ccc(F)cc1F | 60 strains | - | - | 1.25 µg/mL
N=C(N)c1cccc(-c2cc3cc(C(=N)N)ccc3[nH]2)c1 | - | - | - | >60 µg/mL
Fc1ccc(/C(Cn2ccnc2)=N/OCc2ccccc2)cc1 | CA7 | - | - | 128 µg/mL
Cc1c(C(=O)c2ccc(Cl)cc2)oc2ccc(Cl)cc12 | Clinical isolate | - | - | 25 µg/mL
Nc1ncnc2c1ncn2[C@@H]1O[C@H](C(=O)O)[C@@H](NC(=O)[C@H](N)CSC/C(Cl)=C/Cl)[C@H]1O | FP633 | - | - | 50 µg/mL
Clc1ccc(/C(Cn2ccnc2)=N/OCc2ccccc2)cc1 | 3M | - | - | 64 µg/mL
C[C@@H](c1ncncc1F)[C@](O)(Cn1cncn1)c1ccc(F)cc1F | Isolate 5810 | - | - | 0.03 µg/mL
CCCCCOc1ccc(-c2ccc(-c3ccc(C(=O)N[C@H]4CCCNC(=O)[C@@H]5CCCCN5C(=O)[C@H]([C@@H](C)O)NC(=O)[C@H](CCc5ccc(O)cc5)NC(=O)[C@@H]5C[C@@H](O)CN5C(=O)[C@H]([C@@H](C)O)NC4=O)cc3)cc2)cc1 | ATCC 62376 | - | - | 6.25 µg/mL
CCCCCOc1ccc(-c2ccc(-c3ccc(C(=O)N[C@H]4CCCNC(=O)C5[C@@H](O)CN5C(=O)C(C(C)O)NC(=O)C(CCc5ccc(O)cc5)NC(=O)C5C[C@@H](O)CN5C(=O)C(C(C)O)NC4=O)cc3)cc2)cc1 | ATCC CCH442 | - | - | 0.39 µg/mL
N=C(N)c1ccc(NN=Nc2ccc(-c3cc4cc(C(=N)N)ccc4o3)cc2)cc1 | - | - | - | >60 µg/mL
Cc1nc2cc(Cl)ccc2c(=O)n1[C@H](C)[C@](O)(Cn1cncn1)c1ccc(F)cc1F | 76 strains | - | - | 10 µg/mL
Clc1ccc(/C(Cn2ccnc2)=N/OCc2ccccc2)c(Cl)c1 | PR1 | - | - | 8 µg/mL
CCCCCOc1ccc(-c2ccc(-c3ccc(C(=O)N[C@H]4CCCNC(=O)[C@@H]5C[C@H](N)CN5C(=O)[C@H](CO)NC(=O)C(CCc5ccc(O)cc5)NC(=O)[C@@H]5C[C@@H](O)CN5C(=O)[C@H]([C@@H](C)O)NC4=O)cc3)cc2)cc1 | ATCC 38247 | - | - | 0.2 µg/mL
CCCCCOc1ccc(-c2ccc(-c3ccc(C(=O)N[C@H]4CCCNC(=O)C5C[C@H](NCC(=O)O)CN5C(=O)C(C(C)O)NC(=O)C(CCc5ccc(O)cc5)NC(=O)C5C[C@@H](O)CN5C(=O)C(C(C)O)NC4=O)cc3)cc2)cc1 | ATCC CCH442 | - | - | 0.78 µg/mL
COc1ccc(C[C@H](N)C(=O)N[C@H]2[C@@H](O)[C@H](n3cnc4c(N)ncnc43)O[C@@H]2C(=O)O)cc1 | FP633 | - | - | 1.6 µg/mL
N=C(N)c1ccc(-c2cnc(-c3ccc(C(=N)N)cc3)[nH]2)cc1 | - | - | - | >60 µg/mL
C[C@@H](O)[C@@H]1NC(=O)[C@H](CCc2ccc(O)cc2)NC(=O)[C@@H]2C[C@@H](O)CN2C(=O)[C@H]([C@@H](C)O)NC(=O)[C@@H](NCC2CCCCC2)CCCNC(=O)[C@@H]2C[C@H](N)CN2C1=O | ATCC 62376 | - | - | 0.2 µg/mL
CC(=C/C=C/C(=O)O)/C=C/C=C(\C)C(O)C(C)C(=O)O[C@H]1C[C@H](C)C=C2C=C[C@@]3(C)O[C@@H](O)CC(=O)[C@]3(C)[C@H]21 | ATCC 38247 | - | - | 0.78 µg/mL
C[C@@H](n1cnc2cc(Oc3ccc(Cl)cc3)ccc2c1=O)[C@](O)(Cn1cncn1)c1ccc(F)cc1F | 60 strains | - | - | ≤0.03 µg/mL
Nc1ncnc2c1ncn2[C@@H]1O[C@H](C(=O)O)[C@@H](NC(=O)C(N)CSCc2cccnc2)[C@H]1O | FP633 | - | - | 0.8 µg/mL
CCCCCOc1ccc(-c2ccc(-c3ccc(C(=O)N[C@H]4CCCNC(=O)[C@@H]5C[C@H](N)CN5C(=O)CNC(=O)C(CCc5ccc(O)cc5)NC(=O)[C@@H]5C[C@@H](O)CN5C(=O)[C@H]([C@@H](C)O)NC4=O)cc3)cc2)cc1 | ATCC 38247 | - | - | 1.56 µg/mL
O/N=C(\c1ccc(Cl)cc1)c1oc2ccc(Cl)cc2c1Cn1ccnc1 | Clinical isolate | - | - | 25 µg/mL
NC(N)=Nc1ccc(-c2cc3cc(N=C(N)N)ccc3s2)cc1 | - | - | - | 10 µg/mL
CCCCCOc1ccc(-c2ccc(-c3ccc(C(=O)N[C@H]4CCCNC(=O)C5C[C@H](N)CN5C(=O)C(Cc5cnc[nH]5)NC(=O)C(CCc5ccc(O)cc5)NC(=O)C5C[C@@H](O)CN5C(=O)C(C(C)O)NC4=O)cc3)cc2)cc1 | ATCC CCH442 | - | - | 0.78 µg/mL
Nc1ncnc2c1ncn2[C@@H]1O[C@H](C(=O)O)[C@@H](NC(=O)C(N)Cc2ccc(F)cc2)[C@H]1O | FP633 | - | - | 25 µg/mL
CC[C@@H]([C@H](C)O)n1ncn(-c2ccc(N3CCN(c4ccc(OC[C@@H]5CO[C@@](Cn6cncn6)(c6ccc(F)cc6F)C5)cc4)CC3)cc2)c1=O | 15 isolates | broth dilution | pH 7 | 0.03 µg/mL
O=c1c(OC2CCCC2)c(N2CCN(S(=O)(=O)NCc3ccccc3)CC2)cnn1-c1cccc(Cl)c1 | C693 | broth dilution | - | 6.25 µg/mL
CCCCCOc1ccc(-c2ccc(-c3ccc(C(=O)N[C@H]4CCCNC(=O)C5CCCN5C(=O)C(C(C)O)NC(=O)C(CCc5ccc(O)cc5)NC(=O)C5C[C@@H](O)CN5C(=O)C(C(C)O)NC4=O)cc3)cc2)cc1 | ATCC 10231 | - | - | 3.12 µg/mL
CCCCCOc1ccc(-c2ccc(-c3ccc(C(=O)N[C@H]4CCCNC(=O)[C@@H]5C[C@H](NC(=O)CCC(=O)O)CN5C(=O)[C@H]([C@@H](C)O)NC(=O)[C@H](CCc5ccc(O)cc5)NC(=O)[C@@H]5C[C@@H](O)CN5C(=O)[C@H]([C@@H](C)O)NC4=O)cc3)cc2)cc1 | ATCC 38247 | - | - | 3.12 µg/mL
CC(C)(O)c1cn(-c2ccc(Cl)cc2)nn1 | URM 4990 | broth dilution | - | 256 µg/mL
C[C@@H](c1ncncc1F)[C@](O)(Cn1cncn1)c1ccc(F)cc1F | 10 isolates | broth dilution | pH 5 | 0.25 µg/mL
CCCCCOc1ccc(-c2ccc(-c3ccc(C(=O)N[C@H]4CCCNC(=O)[C@@H]5C[C@H](NC(=O)OC(C)(C)C)CN5C(=O)[C@H]([C@@H](C)O)NC(=O)[C@H](CCc5ccc(O)cc5)NC(=O)[C@@H]5C[C@@H](O)CN5C(=O)[C@H]([C@@H](C)O)NC4=O)cc3)cc2)cc1 | ATCC 38247 | - | - | >100 µg/mL
Cc1c(O)cccc1C(=O)N[C@@H](CSc1ccccc1)[C@H](O)CN1C[C@H]2CCCC[C@H]2C[C@H]1C(=O)NC(C)(C)C | I45B | - | - | >64 µg/mL
CSC[C@H](N)C(=O)N[C@H]1[C@@H](O)[C@H](n2cnc3c(N)ncnc32)O[C@@H]1C(=O)O | FP633 | - | - | >100 µg/mL
CCC(C)CC(C)CCCCCCCCC(=O)N[C@H]1C[C@@H](O)[C@H](NCCN)NC(=O)[C@@H]2[C@@H](O)CCN2C(=O)[C@H]([C@H](O)CCN)NC(=O)[C@H]([C@H](O)[C@@H](O)c2ccc(O)cc2)NC(=O)[C@@H]2C[C@@H](O)CN2C(=O)[C@H]([C@@H](C)O)NC1=O | C693 | broth dilution | - | 0.06 µg/mL

The first 7 rows once more:

| SMILES | strain | method | setting | result |
|---|---|---|---|---|
| CCCCCOc1ccc(-c2ccc(-c3ccc(C(=O)N[C@H]4CCCNC(=O)[C@@H]5C[C@H](NC(=O)c6ccccc6)CN5C(=O)[C@H]([C@@H](C)O)NC(=O)[C@H](CCc5ccc(O)cc5)NC(=O)[C@@H]5C[C@@H](O)CN5C(=O)[C@H]([C@@H](C)O)NC4=O)cc3)cc2)cc1 | ATCC 10231 | - | - | 6.25 µg/mL |
| C[C@@H](n1cnc2ccc(F)cc2c1=O)[C@](O)(Cn1cncn1)c1ccc(F)cc1F | 76 strains | - | - | 40 µg/mL |
| c1ccc(CO/N=C(/Cn2ccnc2)c2ccccc2)cc1 | CA2 | - | - | 2 µg/mL |
| C[C@@H](n1cnc2cc(-[n+]3cnc[nH]3)ccc2c1=O)[C@](O)(Cn1cncn1)c1ccc(F)cc1F | 60 strains | - | - | 10 µg/mL |
| COc1ccc(C[C@H](N)C(=O)N[C@H]2[C@@H](O)[C@H](n3cnc4c(=O)[nH]cnc43)O[C@@H]2C(=O)O)cc1 | FP633 | - | - | >100 µg/mL |
| N=C(N)c1ccc2oc(/C=C/c3cc4cc(C(=N)N)ccc4s3)cc2c1 | - | - | - | >60 µg/mL |
| C[C@@H](n1cnc2cc(F)ccc2c1=O)[C@](O)(Cn1cncn1)c1ccc(F)cc1F | 60 strains | - | - | 0.07 µg/mL |

Blank or dashed fields: not listed here.